Results of unrelated studies side by side (data: NIAID ChemDB).

Shared fields: growth or infection tests; species: Aspergillus fumigatus

Percent inhibition refers to the dose given; in toxicity tests it is the harm to the cells. Zone: diameter of growth inhibition. MIC50, MIC90 and the like: level of inhibition, or share of isolates inhibited. Rows are shuffled and stem from different studies. Blank or dashed fields: not listed here. Two numbers with a dash give a range or band.

smiles | read by | measure | dose | strain or isolate | result
C[C@H]1[C@H](O)[C@@H](C)/C=C/C=C/C=C/C=C/C=C/C=C/C=C/[C@H](O[C@@H]2O[C@H](C)[C@@H](O)[C@H](N)[C@@H]2O)C[C@@H]2O[C@](O)(C[C@@H](O)C[C@@H](O)CC[C@H](O)[C@@H](O)C[C@@H](O)CC(=O)O[C@H]1C)C[C@H](O)[C@H]2C(=O)O |  | MIC50 |  | 60 isolates | 1 µg/mL
C[C@H]1[C@H](O)[C@@H](C)/C=C/C=C/C=C/C=C/C=C/C=C/C=C/[C@H](O[C@@H]2O[C@H](C)[C@@H](O)[C@H](N)[C@@H]2O)C[C@@H]2O[C@](O)(C[C@@H](O)C[C@@H](O)CC[C@H](O)[C@@H](O)C[C@@H](O)CC(=O)O[C@H]1C)C[C@H](O)[C@H]2C(=O)O | broth dilution | inhibition | 0.54 µM | 231 | 50%
C=CCc1ccc(O)c(OC)c1 | agar | MIC100 |  |  | 423 µg/mL
OC[C@H]1O[C@@H](n2nc(-c3cccnc3)n(/N=C/c3ccccc3)c2=S)[C@H](O)[C@@H](O)[C@@H]1O | agar diffusion / agar | zone | 5 mg/mL |  | 1–5 mm
C[C@H]1[C@H](O)[C@@H](C)/C=C/C=C/C=C/C=C/C=C/C=C/C=C/[C@H](O[C@@H]2O[C@H](C)[C@@H](O)[C@H](N)[C@@H]2O)C[C@@H]2O[C@](O)(C[C@@H](O)C[C@@H](O)CC[C@H](O)[C@@H](O)C[C@@H](O)CC(=O)O[C@H]1C)C[C@H](O)[C@H]2C(=O)O | broth dilution | inhibition | 4 µg/mL | AB16.4 | 66%
COc1ccc(CCn2cnc3ccccc3c2=O)cc1OC | agar diffusion / agar | zone | 10 mg/mL | RCMB 002003 | 9.4 mm
O=C(/C=C/c1ccccc1)c1ccc2occc2c1O | agar diffusion | zone | 50 µg/disc |  | 0 mm
Oc1cc(O)c2c(c1)O[C@H](c1ccc(O)c(O)c1)[C@@H](O)C2 |  | inhibition | 1000 µg/mL |  | 95%
Clc1ccccc1C(c1ccccc1)(c1ccccc1)n1ccnc1 | agar diffusion / agar | zone | 10 mg/mL | RCMB 002003 | 18.3 mm
COc1cc(C(=O)O)ccc1O | agar | MIC50 |  |  | >1000 µg/mL
COc1cc2occc2c(O)c1C(=O)/C=C/c1ccccc1 | agar diffusion | zone | 50 µg/disc |  | 9 mm
CCC(C)n1ncn(-c2ccc(N3CCN(c4ccc(OC[C@H]5CO[C@](Cn6cncn6)(c6ccc(Cl)cc6Cl)O5)cc4)CC3)cc2)c1=O |  | MFC |  | NFI 0239 | >4 µg/mL
C/C=C/c1ccc(O)c(OC)c1 | agar | MIC50 |  |  | 71 µg/mL
O=C(/C=C/c1ccccc1)c1c(O)cc2occc2c1O | agar diffusion | zone | 50 µg/disc |  | 0 mm
O=C(O)/C=C/c1ccc(O)cc1 | agar | MIC50 |  |  | >1000 µg/mL
C=CCc1ccc(O)c(OC)c1 | broth dilution | MFC |  | MTCC 2550 | 640 µg/mL
COc1ccc(CCn2cnc3c(Cl)cccc3c2=O)cc1 | agar diffusion / agar | zone | 10 mg/mL | RCMB 002003 | 10.4 mm
CC1(C)CCC[C@]2(C)[C@H]3C=C4C(=CC(=O)C(O)=C4Cl)O[C@@]3(C)CC[C@@H]12 |  | inhibition | 20 µg/mL | ATCC 90906 | 0%
O=c1c2ccccc2nc(-c2ccc(Cl)cc2)n1Cc1ccccc1 | agar diffusion / agar | zone | 10 mg/mL | RCMB 002003 | 18.3 mm
CC1=C[C@H]2[C@@H](CC1)[C@](C)(O)CCCC2(C)C | agar diffusion | zone | 150 µg/mL |  | 10 mm
C[C@H]1[C@H](O)[C@@H](C)/C=C/C=C/C=C/C=C/C=C/C=C/C=C/[C@H](O[C@@H]2O[C@H](C)[C@@H](O)[C@H](N)[C@@H]2O)C[C@@H]2O[C@](O)(C[C@@H](O)C[C@@H](O)CC[C@H](O)[C@@H](O)C[C@@H](O)CC(=O)O[C@H]1C)C[C@H](O)[C@H]2C(=O)O |  | MFC |  | NFI 0239 | 2 µg/mL
CC/C=C/C(CC)CCC[C@@]1(CC)C[C@H](CC)[C@H](CC(=O)O)OO1 |  | inhibition | 5 µg/mL |  | 50%

A second listing of 2 rows from above:

smiles,read by,measure,dose,strain or isolate,result
CCC(C)n1ncn(-c2ccc(N3CCN(c4ccc(OC[C@H]5CO[C@](Cn6cncn6)(c6ccc(Cl)cc6Cl)O5)cc4)CC3)cc2)c1=O,,MFC,,NFI 0239,>4 µg/mL
O=c1c2ccccc2nc(-c2ccc(Cl)cc2)n1Cc1ccccc1,agar diffusion / agar,zone,10 mg/mL,RCMB 002003,18.3 mm